Results taken from patent US6972343B1, “Quaternary bis-ammonium salt precursors and their uses as prodrugs having an antiparasitic activity” (CNRS, priority 1999, dated 2005).
Read-outs that look alike come from different tables or passages of the source.

System: P. vinckei
Format: in vivo
Conditions: mouse
From the text: B) Antimalarial Activity in vivo Against a Mouse Infected by P. vinckei and Tolerance After Administration in Acute or Semi-chronic Conditions.
The IC50 is the concentration which inhibits by 50% the in vitro growth of P. falciparum: the LD50 is the lethal dose corresponding to the death of 50% of the mice and the ED50 is the effective dose for inhibiting by 50% the in vivo growth of P. vinckei according to a 4-day suppressive test, TI corresponds to the therapeutic index, TI=LD50 (semi-chronic)/ED50; ip: intraperitoneal administration; po: per os.

C[N+]1(CCCCCCCCCCCCCCCC[N+]2(C)CCCC2)CCCC1 [G25, 1,16-hexadecamethylene bis-(N-methylpyrrolidinium), reference compound]
TI (therapeutic index = LD50 semi-chronic/ED50) (ip): 5.2 | TI (therapeutic index = LD50 semi-chronic/ED50) (po): 4.4

COCCC(SC(=O)c1ccccc1)=C(C)N(C=O)CCCCCCCCCCCCN(C=O)C(C)=C(CCOC)SC(=O)c1ccccc1 [TE4c, N,N′-diformyl-N,N′-di[1-methyl-2-S-thiobenzoyl-4-methoxybut-1-enyl]-1,12-diaminododecane]
TI (therapeutic index = LD50 semi-chronic/ED50) (ip): ≥ 30

CCCSSC(CCO)=C(C)N(C=O)CCCCCCCCCCCCN(C=O)C(C)=C(CCO)SSCCC [TS3b, N,N′-diformyl-N,N′-di[1-methyl-2-propyl-dithio-4-hydroxybut-1-enyl]-1,12-diaminododecane]
TI (therapeutic index = LD50 semi-chronic/ED50) (po): 2.3
